Anti-infective test results gathered from many reports (values: NIAID ChemDB through PubChem).

Common to all: enzyme or target tests; agent: HIV-1; target: Protease; endpoint: Ki

An empty or dashed field is not shown. Lines come from different laboratories, so protocols vary.

| compound | changes | read by | conditions | result |
|---|---|---|---|---|
| CC(C)(CCCCNS(C)(=O)=O)CN(C[C@@H](O)[C@H](Cc1ccccc1)NC(=O)O[C@H]1CO[C@H]2OCC[C@H]21)S(=O)(=O)c1cccc2c1OCCO2 |  | fluorescence |  | <0.001 µM |
| Cc1ccccc1CNC(=O)[C@H]1N(C(=O)[C@@H](O)[C@H](Cc2cccc(F)c2)NC(=O)c2cccc(O)c2C)CC(F)(F)C1(C)C |  |  |  | <0.0001 µM |
| COc1ccc(S(=O)(=O)N(Cc2ccco2)C[C@@H](O)[C@H](Cc2ccccc2)NC(=O)O[C@H]2CCOC2)cc1 |  |  |  | 0.02 µM |
| CC(C)(CCCNC(=O)c1ccc2c(c1)OCO2)CN(C[C@@H](O)[C@H](Cc1ccccc1)NC(=O)O[C@H]1CO[C@H]2OCC[C@H]21)S(=O)(=O)c1ccc2c(c1)OCO2 |  | fluorescence |  | <0.001 µM |
| CC(=O)c1cccc(N2C[C@@H](C(=O)N[C@@H](CCc3ccccc3)[C@H](O)CN(CC(C)C)S(=O)(=O)c3ccc4c(c3)OCO4)OC2=O)c1 |  |  |  | 0.000006 µM |
| CC(C)[C@H](NC(=O)[C@H](C/C=C/c1ccccc1)C[C@H](O)[C@H](Cc1ccccc1)NC(=O)OC(C)(C)C)c1ncn[nH]1 |  | HPLC |  | 0.0067 µM |
| CC(C)[C@H](NC(=O)OCc1ccccc1)C(=O)N[C@@H](Cc1ccccc1)P(C)(=O)[C@H](Cc1ccccc1)NC(=O)[C@@H](NC(=O)OCc1ccccc1)C(C)C |  | HPLC |  | >1000 µM |
| CC(O)[C@H](NC(=O)CCCCCCCCCCCCCCC(=O)N[C@@H](CC(N)=O)C(=O)N[C@@H](Cc1ccccc1)C(=O)O)C(=O)N[C@@H](CC1CCCCC1)C(=O)N[C@@H](Cc1ccccc1)C(N)=O |  |  |  | 0.69 µM |
| CC(C)(CCNS(C)(=O)=O)CN(C[C@@H](O)[C@H](Cc1ccccc1)NC(=O)O[C@H]1CO[C@H]2OCC[C@H]21)S(=O)(=O)c1cccc(N)c1 |  | fluorescence |  | <0.001 µM |
| CC(C)C[C@H](NC(=O)[C@@H](NC(=O)CCCCCCCCCCCCCCC(=O)N[C@@H](Cc1ccccc1)C(=O)N[C@@H](Cc1ccccc1)C(=O)O)C(C)O)C(=O)N[C@@H](Cc1ccccc1)C(N)=O |  |  |  | 0.24 µM |
| COc1ccc(S(=O)(=O)N(CC(C)C)C[C@@H](O)[C@H](Cc2ccccc2)NC(=O)OCO[C@H]2C[C@H]3OCC4(CC[C@@H](OC)O4)[C@H]3C2)cc1 |  | substrate cleavage / fluorescence |  | 0.00081 µM |
| COC[C@@H]1[C@@H](OC)[C@H](OC)[C@H](COC)N1C[C@@H](O)[C@H](Cc1ccccc1)NC(=O)OCc1ccccc1 |  | fluorescence |  | 20 µM |
| CC(C)C(=O)c1cnc([C@H](Cc2ccccc2)C[C@H](O)[C@H](Cc2ccccc2)NC(=O)[C@@H](NC(=O)OCc2ccccc2)C(C)C)[nH]1 |  | HPLC |  | 0.0022 µM |
| CC(C)(CCCNS(=O)(=O)c1ccccc1)CN(C[C@@H](O)[C@H](Cc1ccccc1)NC(=O)O[C@H]1CO[C@H]2OCC[C@H]21)S(=O)(=O)c1ccc2c(c1)OCO2 |  | fluorescence |  | <0.001 µM |
| Cc1ccccc1CNC(=O)[C@H]1N(C(=O)[C@@H](O)[C@H](CCc2ccccc2)NC(=O)O[C@H]2CCOC2)CSC1(C)C |  |  |  | 0.00021 µM |
| CC(=O)N1C2C3C4N(C(C)=O)C5C(C1C5(CO)[C@H]3c1ccccc1)[C@@H](c1ccccc1)C24CO |  |  |  | 0.13 µM |
| CC(C)C[C@H](NC(=O)[C@@H](NC(=O)CCCCCCCCCCCCCCC(=O)N[C@@H](CC(N)=O)C(=O)N[C@@H](Cc1ccccc1)C(=O)O)C(C)O)C(=O)N[C@@H](Cc1ccc(-c2ccccc2)cc1)C(N)=O |  |  |  | 0.228 µM |
| COc1ccc(S(=O)(=O)N(CC(C)C)C[C@@H](O)[C@@H]2Cc3ccc(cc3)OCCCCCCc3c(O)cccc3C(=O)N2)cc1 |  | fluorescence |  | 0.0023 µM |
| COc1ccc(S(=O)(=O)N(C[C@@H](O)[C@H](Cc2ccccc2)NC(=O)O[C@H]2CCCO2)CC2(CCC#N)CCCC2)cc1 |  | fluorescence |  | <0.001 µM |
| Cc1cc(CO)ccc1CNC(=O)[C@H]1N(C(=O)[C@@H](O)[C@H](CCc2ccccc2)NC(=O)O[C@H]2CO[C@H]3OCC[C@H]32)CSC1(C)C |  |  |  | 0.00031 µM |
| CC(C)(CCNC(=S)NCc1ccco1)CN(C[C@@H](O)[C@H](Cc1ccccc1)NC(=O)O[C@H]1CO[C@H]2OCC[C@H]21)S(=O)(=O)c1ccc2c(c1)OCO2 |  | fluorescence |  | <0.001 µM |
| O=S1(=O)N(Cc2cccc(O)c2)[C@H](Cc2ccccc2)CC(O)C[C@@H](Cc2ccccc2)N1Cc1cccc(O)c1 |  |  |  | 1 µM |
| O=C(N[C@H](Cc1ccc(O)c(-c2cc(C[C@@H](NC(=O)OCc3ccccc3)C(=O)O)ccc2O)c1)C(=O)O)OCc1ccccc1 |  |  |  | 6.8 µM |
| COc1ccc(S(=O)(=O)N(C[C@@H](O)[C@H](Cc2ccccc2)NC(=O)O[C@H]2CO[C@H]3OCC[C@H]32)CC(C)(C)CCNC(=O)N(C)C)cc1 |  | fluorescence |  | <0.001 µM |
| CC(C)[C@H](NC(=O)[C@H](C/C=C/c1ccccc1)C[C@H](O)[C@H](Cc1ccccc1)NC(=O)OC(C)(C)C)c1ncc[nH]1 |  | HPLC |  | 0.014 µM |
| C[C@@H](O)[C@H](NC(=O)CCCCCCCCCCCCCCC(=O)N[C@@H](CC(N)=O)C(=O)N[C@@H](Cc1ccccc1)C(=O)O)C(=O)N[C@H](C(=O)N[C@@H](Cc1ccccc1)C(N)=O)C1CCCCC1 |  |  |  | 0.31 µM |
| O=C(Oc1ccccc1)N1C2C3C4N(C(=O)Oc5ccccc5)C5C(C1C5(CO)[C@H]3c1ccccc1)[C@@H](c1ccccc1)C24CO |  |  |  | 0.125 µM |
| CC(C)(CCCCCNC(=O)c1ccco1)CN(C[C@@H](O)[C@H](Cc1ccccc1)NC(=O)O[C@H]1CO[C@H]2OCC[C@H]21)S(=O)(=O)c1ccc2c(c1)OCO2 |  | fluorescence |  | <0.001 µM |
| CC[C@H](C)[C@@H](NC(=O)[C@@H](C[C@H](O)[C@H](CC(C)C)NC(=O)[C@H](Cc1cnc[nH]1)NC(=O)[C@H](Cc1ccccc1)NC(=O)[C@@H]1CCCN1C(=O)[C@@H](N)Cc1cnc[nH]1)C(C)C)C(=O)N[C@@H](Cc1cnc[nH]1)C(=O)O |  | HPLC | pH 5.0 | 0.015 µM |
| O=C(N[C@@H](Cc1ccccc1)[C@@H](O)[C@@H](O)[C@@H](Cc1ccccc1)NC(=O)c1ccccc1)c1ccccc1 |  | substrate cleavage |  | 0.042 µM |
| CCN(/C=C1\C(=O)Nc2ccc(S(=O)(=O)N(CC(C)C)C[C@@H](O)[C@H](Cc3ccccc3)NC(=O)O[C@H]3CO[C@H]4OCC[C@H]43)cc21)CC | L10 L24 M36 I54 L63 A71 V82 I84 | substrate cleavage |  | <0.0001 µM |
| O=C(N[C@H]1c2ccccc2C[C@H]1O)[C@H](Cc1ccccc1)C[C@H](O)CN1C(=O)[C@@H](Cc2ccccc2)C[C@@H]1Cc1ccccc1 |  |  |  | 0.05 µM |
| COC(=O)CCC(=O)NCCC(C)(C)CN(C[C@@H](O)[C@H](Cc1ccccc1)NC(=O)O[C@H]1CO[C@H]2OCC[C@H]21)S(=O)(=O)c1ccc2c(c1)OCO2 |  | fluorescence |  | <0.001 µM |
| O=C(N[C@@H](Cc1ccccc1)[C@H](O)[C@H](O)[C@@H](Cc1ccccc1)NC(=O)c1ccc(O)cc1)c1ccc(O)cc1 |  | substrate cleavage |  | 0.276 µM |
| CC(C)(CCNC(=O)Oc1ccc(F)cc1)CN(C[C@@H](O)[C@H](Cc1ccccc1)NC(=O)O[C@H]1CO[C@H]2OCC[C@H]21)S(=O)(=O)c1ccc2c(c1)OCO2 |  | fluorescence |  | <0.001 µM |
| CC(C)CN(C[C@@H](O)[C@H](Cc1ccccc1)NC(=O)O[C@H]1CO[C@H]2OCC[C@H]21)S(=O)(=O)c1ccc(C(N)=O)cc1 |  | substrate cleavage / fluorescence |  | 0.0000089 µM |
| O=c1oc(-c2ccccc2)cc(O)c1SCc1ccccc1 |  |  |  | 0.7 µM |
| CCC(Cc1ccccc1)c1cc(O)c(C(CC)c2ccccc2)c(=O)o1 |  |  |  | 0.049 µM |
| CCCCCc1c(O)cccc1C(=O)N[C@@H](Cc1ccc(O)cc1)[C@H](O)CN(CC(C)C)S(=O)(=O)c1ccc(OC)cc1 |  | fluorescence |  | 0.00041 µM |
| COc1ccc(S(=O)(=O)N(CC(C)C)C[C@@H](O)[C@H](Cc2ccccc2)NC(=O)OCO[C@H]2C[C@H]3OCC4(CNC(=O)O4)[C@H]3C2)cc1 |  | substrate cleavage / fluorescence |  | 0.00029 µM |
| COc1ccc(S(=O)(=O)N(CC(C)C)C[C@@H](O)[C@H](CCc2ccccc2)NC(=O)[C@@H]2CN(c3cccc(C(F)(F)F)c3)C(=O)O2)cc1 |  |  |  | 0.000006 µM |
| CC(C)(CCCCOC(=O)NC1CC1)CN(C[C@@H](O)[C@H](Cc1ccccc1)NC(=O)O[C@H]1CO[C@H]2OCC[C@H]21)S(=O)(=O)c1ccc2c(c1)OCO2 |  | fluorescence |  | <0.001 µM |
| C/C(=C/C(=O)N[C@@H](CCc1ccccc1)[C@H](O)CN(Cc1cccs1)S(=O)(=O)c1cc(F)c(F)cc1F)C(F)(F)F |  |  |  | 0.053 µM |
| CC(C)(C)CC(=O)NCCCC(C)(C)CN(C[C@@H](O)[C@H](Cc1ccccc1)NC(=O)O[C@H]1CO[C@H]2OCC[C@H]21)S(=O)(=O)c1ccc2c(c1)OCO2 |  | fluorescence |  | <0.001 µM |
| CC(C)[C@H](NC(=O)[C@H](OCc1ccccc1)[C@H](O)[C@@H](O)[C@@H](OCc1ccccc1)C(=O)N[C@H]1c2ccccc2C[C@H]1O)C(=O)NCCF |  |  |  | 0.001 µM |
| CC(C)(CCCNC(=O)C1CCC1)CN(C[C@@H](O)[C@H](Cc1ccccc1)NC(=O)O[C@H]1CO[C@H]2OCC[C@H]21)S(=O)(=O)c1ccc2c(c1)OCO2 |  | fluorescence |  | <0.001 µM |
| O=c1oc(-c2ccccc2)cc(O)c1Sc1ccccc1 |  |  |  | 1.1 µM |
| CCCCOC(=O)NCCCCCC(C)(C)CN(C[C@@H](O)[C@H](Cc1ccccc1)NC(=O)O[C@H]1CO[C@H]2OCC[C@H]21)S(=O)(=O)c1ccc2c(c1)OCO2 |  | fluorescence |  | <0.001 µM |
| CC(C)[C@H](NC(=O)[C@H](C)C[C@H](O)[C@H](Cc1ccccc1)NC(=O)[C@H](C)NC(=O)OCc1ccccc1)C(=O)N[C@H](CO)C(C)C |  | HPLC |  | 0.002 µM |
| CC(C)(CCOC(N)=O)CN(C[C@@H](O)[C@H](Cc1ccccc1)NC(=O)O[C@H]1CO[C@H]2OCC[C@H]21)S(=O)(=O)c1ccc2c(c1)OCO2 |  | fluorescence |  | <0.001 µM |
| CC(C)CN(C[C@@H](O)[C@H](Cc1ccccc1)NC(=O)O[C@H]1CO[C@H]2OCC[C@H]21)S(=O)(=O)c1ccc2[nH]c(O)c(C=NCc3nc4ccccc4[nH]3)c2c1 | L10 V32 M46 L63 A71 I84 | substrate cleavage |  | <0.0003 µM |
| CC(C)(CCCNC(=O)CCC1CCCC1)CN(C[C@@H](O)[C@H](Cc1ccccc1)NC(=O)O[C@H]1CO[C@H]2OCC[C@H]21)S(=O)(=O)c1ccc2c(c1)OCO2 |  | fluorescence |  | <0.001 µM |
| Cc1cc(O)c(C)c(C(=O)N[C@@H](Cc2cccc(F)c2)[C@H](O)C(=O)N2CC(F)(F)C(C)(C)[C@H]2C(=O)NCC(C)(C)C)c1 |  |  |  | <0.0001 µM |
| CN=C(NC#N)NCCCC(C)(C)CN(C[C@@H](O)[C@H](Cc1ccccc1)NC(=O)O[C@H]1CO[C@H]2OCC[C@H]21)S(=O)(=O)c1ccc2c(c1)OCO2 |  | fluorescence |  | <0.001 µM |
| COc1ccc(S(=O)(=O)N(CC(C)C)C[C@@H](O)[C@@H]2Cc3ccc(cc3)OCC/C=C/CCc3c(O)cccc3C(=O)N2)cc1 |  | fluorescence |  | 0.0005 µM |

Repeating the final 6 entries:

compound | changes | read by | conditions | result
CC(C)(CCOC(N)=O)CN(C[C@@H](O)[C@H](Cc1ccccc1)NC(=O)O[C@H]1CO[C@H]2OCC[C@H]21)S(=O)(=O)c1ccc2c(c1)OCO2 |  | fluorescence |  | <0.001 µM
CC(C)CN(C[C@@H](O)[C@H](Cc1ccccc1)NC(=O)O[C@H]1CO[C@H]2OCC[C@H]21)S(=O)(=O)c1ccc2[nH]c(O)c(C=NCc3nc4ccccc4[nH]3)c2c1 | L10 V32 M46 L63 A71 I84 | substrate cleavage |  | <0.0003 µM
CC(C)(CCCNC(=O)CCC1CCCC1)CN(C[C@@H](O)[C@H](Cc1ccccc1)NC(=O)O[C@H]1CO[C@H]2OCC[C@H]21)S(=O)(=O)c1ccc2c(c1)OCO2 |  | fluorescence |  | <0.001 µM
Cc1cc(O)c(C)c(C(=O)N[C@@H](Cc2cccc(F)c2)[C@H](O)C(=O)N2CC(F)(F)C(C)(C)[C@H]2C(=O)NCC(C)(C)C)c1 |  |  |  | <0.0001 µM
CN=C(NC#N)NCCCC(C)(C)CN(C[C@@H](O)[C@H](Cc1ccccc1)NC(=O)O[C@H]1CO[C@H]2OCC[C@H]21)S(=O)(=O)c1ccc2c(c1)OCO2 |  | fluorescence |  | <0.001 µM
COc1ccc(S(=O)(=O)N(CC(C)C)C[C@@H](O)[C@@H]2Cc3ccc(cc3)OCC/C=C/CCc3c(O)cccc3C(=O)N2)cc1 |  | fluorescence |  | 0.0005 µM